Compound potency records, mixed from different reports. Data source: NIAID ChemDB in PubChem.

Shared fields: growth or infection tests; agent: Candida albicans; read-out: EC50

ECn: concentration that inhibits the pathogen or its effect by n%.

smiles | strain or isolate | method | conditions | result
Cc1c(C(=O)N2CCN(C)CC2)cc(-c2ccc([N+](=O)[O-])cc2)n1-c1ccccc1Cl | 20 strains |  |  | >200 µg/mL
O=Cc1cc(-c2ccccc2Cl)on1 |  |  |  | 17.6 µg/mL
COc1cc(NC(C)CCCNC(=O)CC(NC(=O)[C@@H](N)CCCCN)C(=O)O)c2nc(C(C)(C)C)ccc2c1 |  | broth dilution |  | >20 µg/mL
CCC(C)n1ncn(-c2ccc(N3CCN(c4ccc(OC[C@H]5CO[C@](Cn6cncn6)(c6ccc(Cl)cc6Cl)O5)cc4)CC3)cc2)c1=O |  |  |  | <5 µg/mL
O=C1C(Nc2ccc(Br)cc2)=C(S(=O)c2ccccc2)C(=O)c2ccccc21 |  |  |  | >0.2 µg/mL
C[n+]1c2cccc(O)c2cc2sc3ccccc3c21 | ATCC 90028 | resazurin |  | >20 µg/mL
CC(C)(C)C1CCC(CN2C3=NC[C@@H](C4CCCCC4)N3C[C@@H]2C2CCCCC2)CC1 | ATCC 10231 |  |  | 16.8 µg/mL
COc1cc(O)c(C(=O)CCc2ccccc2)c(OC)c1 |  |  |  | >50 µg/mL
O=C(O)C(Cc1ccccc1)N1C(=O)CCSC1c1ccccc1 |  | broth dilution |  | 55.36 µM
C1CCC(C[C@H]2CN3C(=NC[C@@H]3C3CCCCC3)N2CCC23CC4CC(CC(C4)C2)C3)CC1 | ATCC 10231 |  |  | 38.8 µg/mL
C[n+]1c2ccccc2cc2[nH]c3c(Br)cccc3c21.[I-] | ATCC 90028 | resazurin |  | >20 µg/mL
COc1cc(NC(C)CCCNC(=O)[C@H](CCCN=C(N)N)NC(=O)[C@@H](N)CCCN=C(N)N)c2ncccc2c1 |  | broth dilution |  | >20 µg/mL
CC(C)(C)C1CCC(CN2C3=NC[C@H](CC4CCCCC4)N3C[C@@H]2C2CCCCC2)CC1 | ATCC 10231 |  |  | 7.3 µg/mL
S=C(S)n1nnc2ccccc21 |  | broth dilution / absorbance | 48 h | >50 µg/mL
COC(=O)[C@H]1[C@@H]2C[C@@H](O[C@@H]3O[C@H](C)[C@@H](O)[C@H](N)[C@@H]3O)/C=C/C=C/C=C/C=C/C=C/C=C/C=C/[C@H](C)[C@@H](O)[C@H](C)[C@H](C)OC(=O)C[C@H](O)C[C@H](O)[C@@H](O)CC[C@H](O)C[C@H](O)C[C@](O)(C[C@@H]1O)O2 |  |  |  | <5 µg/mL
COc1cc(NC(C)CCCNC(=O)CC(NC(=O)[C@H](N)CCCCN)C(=O)O)c2ncccc2c1 |  | broth dilution |  | >20 µg/mL
C[n+]1cccc(Nc2ccccc2)c1.[I-] | ATCC 90028 | resazurin |  | >20 µg/mL
O=C1C=C(S(=O)c2ccccc2)C(=O)c2ccccc21 |  |  |  | >0.2 µg/mL
O/N=C1\CC(c2ccccc2)Oc2cc(O)cc(O)c21 |  |  |  | 48.98 µg/mL
COc1cc(NC(C)CCCNC(=O)CCC(NC(=O)[C@@H](N)CCCN=C(N)N)C(=O)O)c2nc(C(C)(C)C)ccc2c1 |  | broth dilution |  | >20 µg/mL
C[C@@H](c1ncncc1F)[C@](O)(Cn1cncn1)c1ccc(F)cc1F |  |  |  | <5 µg/mL
C[C@H]1[C@H](O)[C@@H](C)/C=C/C=C/C=C/C=C/C=C/C=C/C=C/[C@H](O[C@@H]2O[C@H](C)[C@@H](O)[C@H](N)[C@@H]2O)C[C@@H]2O[C@](O)(C[C@@H](O)C[C@@H](O)CC[C@H](O)[C@@H](O)C[C@@H](O)CC(=O)O[C@H]1C)C[C@H](O)[C@H]2C(=O)O | 20 | broth dilution |  | 1 µM
CCOc1ccc(SCC#CCN2CCCCC2)cc1 | CNCM 1180-79 |  |  | 78 µg/mL
CC1SC(c2ccccn2)N(C(C)C(=O)O)C1=O |  | broth dilution |  | 81.27 µM
COc1ccc2[nH]c3c(C)c(C)c(OC)c(O)c3c2c1 |  | resazurin |  | >50 µg/mL
O=Cc1cc(-c2cccc(Br)c2)no1 |  |  |  | 48.9 µg/mL
CC(C)[C@@H]1CC=CC2C3[C@](C)(CC[C@@]21CBr)[C@@H](Br)CC[C@@]3(C)O | ATCC 10231 |  |  | >100 µM
COc1ccc2[nH]c3c(Cc4ccc5[nH]c6c(C)c(C)c(OC)c(O)c6c5c4)c(C)c(OC)c(O)c3c2c1 |  | resazurin |  | >50 µg/mL
CC(C)=CCC/C(C)=C/CC/C(C)=C/CO |  |  |  | >100 µg/mL
O=C1C(Sc2ccccc2)=C(Sc2ccccc2)C(=O)c2ccccc21 |  |  |  | >0.2 µg/mL
O=C1CC(c2ccccc2)Oc2cc(O)cc(O)c21 |  |  |  | >50 µg/mL
Cc1ccc(SC2=C(Sc3ccc(C)cc3)C(=O)c3ccccc3C2=O)cc1 |  |  |  | >0.2 µg/mL
CCCOc1ccc(SCC#CCCN2CCN(C)CC2)cc1 | CNCM 1180-79 |  |  | 78 µg/mL
COc1ccc2[nH]c3c(C)c(C)c(OC)c(OC)c3c2c1 |  | resazurin |  | >50 µg/mL
O=S(c1ccccc1)c1c(Sc2ccccc2)c(O)c2ccccc2c1O |  |  |  | >0.2 µg/mL
C=CC(C)(O)CCC1C(C)=CC[C@H](Br)[C@@]1(C)CCC=C(C)C | ATCC 10231 |  |  | >100 µM
COc1ccc(CCN2C3=NC[C@H](Cc4ccccc4)N3C[C@@H]2Cc2ccccc2)cc1OC | ATCC 10231 |  |  | >250 µg/mL
O=Cc1cc(-c2ccc(Cl)cc2)no1 |  |  |  | 20.9 µg/mL
CCOc1ccc(SCC#CCN2CCN(C)CC2)cc1 | CNCM 1180-79 |  |  | 78 µg/mL
Cc1onc(-c2cccc(Cl)c2)c1C=O |  |  |  | 26.97 µg/mL
Cc1c(C(=O)N(CCO)CCO)cc(-c2ccc([N+](=O)[O-])cc2)n1Cc1ccccc1 | 20 strains |  |  | >200 µg/mL
COc1ccccc1C1SCC(=O)N1C(C)C(=O)O |  | broth dilution |  | 79.61 µM
O=Cc1cc(-c2ccccc2Cl)no1 |  |  |  | 26.15 µg/mL
CCCOc1ccc(SCC#CI)cc1 | CNCM 1180-79 |  |  | <78 µg/mL
Cc1ccc(-c2noc(C)c2C=O)cc1 |  |  |  | 43.76 µg/mL
COc1c(C)c(C)c2[nH]c3ccc(Cc4c(C)c(OC)c(O)c5c4[nH]c4ccccc45)cc3c2c1O |  | resazurin |  | >50 µg/mL
CC(C)(C)C1CCC(CN2C3=NC[C@H](CC4CCCCC4)N3C[C@H]2CC2CCCCC2)CC1 | ATCC 10231 |  |  | 4.4 µg/mL
CC(C(=O)O)N1C(=O)CCSC1c1ccccc1 |  | broth dilution |  | 75.24 µM
CCCOc1ccc(SCC#CCN2CCCCC2)cc1 | CNCM 1180-79 |  |  | 78 µg/mL
Cc1c(C(=O)N(CCO)CCO)cc(-c2ccc([N+](=O)[O-])cc2)n1-c1ccccc1Cl | 20 strains |  |  | >200 µg/mL
COc1ccc2sc3cc4ccccc4[n+](C)c3c2c1 | ATCC 90028 | resazurin |  | >20 µg/mL
Cc1c(C(=O)N2CCN(C)CC2)cc(-c2ccc([N+](=O)[O-])cc2)n1Cc1ccccc1 | 20 strains |  |  | >200 µg/mL
O=Cc1cc(-c2ccc(Cl)cc2Cl)on1 |  |  |  | 7.5 µg/mL

A second listing of 3 rows from above:

smiles | strain or isolate | method | conditions | result
O=C(O)C(Cc1ccccc1)N1C(=O)CCSC1c1ccccc1 |  | broth dilution |  | 55.36 µM
COc1ccc2sc3cc4ccccc4[n+](C)c3c2c1 | ATCC 90028 | resazurin |  | >20 µg/mL
CCCOc1ccc(SCC#CI)cc1 | CNCM 1180-79 |  |  | <78 µg/mL

Blank or dashed fields: not listed here. Conditions beyond the fields shown may differ between rows.